Columns and labels:
[1] = test system: vancomycin-resistant Enterococci; settings: humans, 200, 400 or 800 mg/kg doses twice daily; cited from earlier work
[2] = test system: multidrug-resistant C. difficile ATCC BAA1382 (MDR-CD)

For ramoplanin, the “safety and suppression of asymptomatic gastrointestinal carriage of VRE” value [1] is given as “safe and effective”, the “MIC (individ.)” value [2] is given as 0.25 µg/mL and the “MIC for ramoplanin alone” value [2] is given as 0.25 µg/mL.
